This test addresses S TAGLESS EXPI293 N77825-4. The test is described as follows: SPR.

With CR3022, the Kd was determined as 0.059 nM. The value for S309 was 0.07 nM.

The record behind these values is patent publication US20230234992A1.
